Like-named read-outs stand apart in the source and are kept apart here.
How the values were obtained:
[1] = design: method as in earlier work; settings: CD [θ]222 nm, 2012 dataset; cited from earlier work
[2] = design: method as in earlier work; settings: CD [θ]222 nm, DMPC LUVs, 2012 dataset; cited from earlier work
[3] = design: method as in earlier work; settings: CD [θ]222 nm, 2:1 DMPC:DMPG LUVs, 2012 dataset; cited from earlier work
[4] = PCA2 and hierarchical clustering of DSC data; design: key: Cluster 1 is composed by molecules with no significant interaction with the evaluated model membranes; Cluster 2 peptides present no detectable interaction with DMPC LUVs but disturb the main phase transition of 2:1 DMPC:DMPG LUVs; Cluster 3: Clusters 3 and 4 are populated by IAPs and AMPs that alter the main phase transition DMPC and 2:1 DMPC:DMPG LUVs and present significant and broad antimicrobial activity; Cluster 4: Clusters 3 and 4 are populated by IAPs and AMPs that alter the main phase transition DMPC and 2:1 DMPC:DMPG LUVs and present significant and broad antimicrobial activity; Cluster 5: The peptide cluster 5 is composed solely of AMPs; settings: cluster membership from HCA of first five principal components of PCA2 (DSC data)
[5] = Far-UV CD, percent helicity with DMPC LUVs; assay type: physicochemical; settings: CD [θ]222 nm, 40 μM peptide + DMPC LUVs, 2016 dataset
[6] = Far-UV CD, percent helicity in buffer; assay type: physicochemical; settings: CD [θ]222 nm, 40 μM peptide in buffer, method of Chen et al., 2016 dataset
[7] = Far-UV CD, percent helicity with 2:1 DMPC:DMPG LUVs; assay type: physicochemical; settings: CD [θ]222 nm, 40 μM peptide + 2:1 DMPC:DMPG LUVs, 2016 dataset
[8] = DSC of DMPC LUVs with peptide; settings: 2016 dataset; for Tm_broad_pc, transition temperature of broad component: 0.5 mM DMPC LUVs + 20 μM peptide (4 mol%), pH 7.4, P′β→Lα transition, non-two state fit; for H_broad_pc, transition enthalpy of broad component / H_sharp_pc, transition enthalpy of sharp component / Hv_broad_pc, van´t Hoff transition enthalpy of broad component / Hv_sharp_pc, van´t Hoff transition enthalpy of sharp component / Tm_sharp_pc, transition temperature of sharp component: DMPC LUVs + 4 mol% peptide
[9] = DSC of 2:1 DMPC:DMPG LUVs with peptide
[10] = 2:1 DMPC:DMPG LUVs + 4 mol% peptide, 2016 dataset

Sequence	% Helicity (Buffer) [1]	% Helicity 0.01 peptide/DMPC (mol/mol) [2]	% Helicity 0.01 peptide/(2:1 DMPC/DMPG) (mol/mol) [3]	Cluster [4]	other results
FINKAGKLQSQLRTTVVAAAAFLDAFQKVA [O43312(33-62)]	11.9%	42.9%	56.4%	Cluster 4	–
FKQFHFKDFNRAFGFMTRVALQAEKL [P61458(35-60)]	7.6%	6.1%	23.5%	Cluster 2	–
FLSLIPHAINAVSTLVHHF [PS-2, AMP from the skin secretion of Phyllomedusa azurea, reference compound]	5.6%	32.1%	33.4%	Cluster 3	% Helicity 0.01 peptide/DMPC (mol/mol) [5]: 42.5%; % Helicity (Buffer) [6]: 10.5%; % Helicity 0.01 peptide/(2:1 DMPC/DMPG) (mol/mol) [7]: 59.7%
GHRGALKDWVQAAGGAVAAFDFTTKG [Q8RW88(70-95)]	17.0%	12.4%	14.9%	Cluster 1	–
GIGDILKNLAKAAGKAALHAVGESL [HSP-4, Hylaseptin-4, reference compound]	11.8%	94.3%	90.3%	Cluster 5	% Helicity 0.01 peptide/DMPC (mol/mol) [5]: 98.1%; % Helicity (Buffer) [6]: 12.4%; % Helicity 0.01 peptide/(2:1 DMPC/DMPG) (mol/mol) [7]: 96.6%
GIGKFLHSAKKFGKAFVGEIMNS [Mag-2a, Magainin-2a, reference compound]	2.3%	3.3%	38.5%	Cluster 3	Tm_broad_pc, transition temperature of broad component [8]: 23.58 °C; H_broad_pc, transition enthalpy of broad component [8]: 2759 kcal/mol; H_sharp_pc, transition enthalpy of sharp component [8]: 2773 kcal/mol; Hv_broad_pc, van´t Hoff transition enthalpy of broad component [8]: 191700 kcal/mol; Hv_sharp_pc, van´t Hoff transition enthalpy of sharp component [8]: 555900 kcal/mol; Tm_sharp_pc, transition temperature of sharp component [8]: 23.93 °C; % Helicity 0.01 peptide/DMPC (mol/mol) [5]: 1.8%; % Helicity (Buffer) [6]: 7.5%; % Helicity 0.01 peptide/(2:1 DMPC/DMPG) (mol/mol) [7]: 47.6%
GLKDMIKNLAKEAAVKLAGAVINKFSPQPQ [Nat-1, Nattererin-1, reference compound]	14.3%	64.1%	75.5%	Cluster 4	% Helicity 0.01 peptide/DMPC (mol/mol) [5]: 48.0%; % Helicity (Buffer) [6]: 12.8%; % Helicity 0.01 peptide/(2:1 DMPC/DMPG) (mol/mol) [7]: 79.5%
GLNTLKKVIQGLHEVIKLVNNHA [Pseudin B, AMP of the 2012 dataset, reference compound]	14.8%	72.2%	68.7%	Cluster 4	–
GLWQIFSSKEEGKDNSQQKSKGDQAKEL [gb|ACU24018.1|(73-101)]	5.9%	5.3%	6.3%	Cluster 1	–
GLWSTIKQKGKE [DS 01 (1-12), fragment 1–12 of DS 01, 2012 dataset, reference compound]	6.9%	4.2%	12.1%	Cluster 1	–
GVLDILKGAAKDLAGHVATKVINKI [Syphaxin, AMP of the 2012 dataset, reference compound]	9.7%	68.2%	76.7%	Cluster 5	–
IAAAQRITSGAADIAINWAGGLHHAKK [B0CZJ3(104-130)]	20.0%	16.0%	19.3%	Cluster 1	–
KLKKLLAGQKDGLLGQIAAMSDLYTKK [P94692(929-955)]	5.8%	8.1%	34.3%	Cluster 2	–
LAKRRVLTLLRQLRRVSPSS [Q7YRI0(9-28)]	13.4%	12.0%	43.8%	Cluster 2	–
LLDKLKRTLLSIEAVLI [Tc11, putative IAP, EOY17584.1 (39–55)]	–	–	–	Cluster 2	Tm_broad_pc, transition temperature of broad component [8]: 23.59 °C; H_broad_pc, transition enthalpy of broad component [8]: 3818 kcal/mol; H_sharp_pc, transition enthalpy of sharp component [8]: 2201 kcal/mol; Hv_broad_pc, van´t Hoff transition enthalpy of broad component [8]: 109500 kcal/mol; Hv_sharp_pc, van´t Hoff transition enthalpy of sharp component [8]: 514800 kcal/mol; Tm_sharp_pc, transition temperature of sharp component [8]: 23.68 °C; % Helicity 0.01 peptide/DMPC (mol/mol) [5]: 57.0%; Tm_broad_pcpg, transition temperature of broad component ([9]; 0.5 mM 2:1 DMPC:DMPG LUVs + 20 μM peptide (4 mol%), pH 7.4, 2016 dataset): 24.89 °C; H_broad_pcpg, transition enthalpy of broad component [9, 10]: 2151 kcal/mol; H_sharp_pcpg, transition enthalpy of sharp component [9, 10]: 2118 kcal/mol; Hv_broad_pcpg, van´t Hoff transition enthalpy of broad component [9, 10]: 118200 kcal/mol; Hv_sharp_pcpg, van´t Hoff transition enthalpy of sharp component [9, 10]: 632200 kcal/mol; Tm_sharp_pcpg, transition temperature of sharp component [9, 10]: 24.51 °C; % Helicity (Buffer) [6]: 45.8%; % Helicity 0.01 peptide/(2:1 DMPC/DMPG) (mol/mol) [7]: 56.7%
LRPAILVRVKGKGL [Hyposin HA-6, peptide of the 2012 dataset, reference compound]	16.1%	11.9%	15.5%	Cluster 1	–
SLWKNLSRKISGAVKAQPDLHTLLPLPGS [Q9XEY7(120-148)]	8.1%	8.8%	33.8%	Cluster 2	–

— publication PMC5775428, “Towards an experimental classification system for membrane active peptides” (Scientific Reports, 2018)
